Where two headings read alike, the source gives them in different places.
Test system: JEV strain AT31
[1] = Primary screening of 1034 compounds in the natural extracts library
[2] = primary screening of 1034 compounds in the natural extracts library, red numbers = obvious cytotoxicity, blue numbers = insoluble in DMSO (colours not visible)

Compound	Inhibition (%) [1] [%]	also measured
COc1ccc2cc3[n+](cc2c1OC)CCc1cc(O)c(O)cc1-3 [DeMethyleneberberine]	11.2398	
O=C(O)[C@H]1O[C@@H](Oc2cc(O)c3c(=O)cc(-c4ccc(O)cc4)oc3c2)[C@H](O)[C@@H](O)[C@@H]1O [Apigenin-7-O-glucuronide]	5.863	
O=C(/C=C/c1ccc(O)cc1)c1ccc(O[C@@H]2O[C@H](CO)[C@@H](O)[C@H](O)[C@H]2O)cc1O [neoisoliquritin]	41.9799	
Madecassoside	10.1302	
O=C1OC(=O)[C@H]2[C@@H]1[C@@H]1CC[C@H]2O1 [Norcantharidin]	10.6149	
O=c1c(O[C@@H]2O[C@H](CO)[C@@H](O)[C@H](O)[C@H]2O)c(-c2ccc(O)c(O)c2)oc2cc(O[C@@H]3O[C@H](CO[C@@H]4O[C@H](CO)[C@@H](O)[C@H](O)[C@H]4O)[C@@H](O)[C@H](O)[C@H]3O)cc(O)c12	-6.999	
CN1CCC[C@H]1c1cccnc1 [L-Nicotine]	-12.2927	
CC(C)=CCC[C@](C)(O[C@@H]1O[C@H](CO)[C@@H](O)[C@H](O)[C@H]1O)[C@H]1CC[C@]2(C)[C@@H]1[C@H](O)C[C@@H]1[C@@]3(C)CC[C@H](O)C(C)(C)[C@@H]3[C@@H](O[C@@H]3O[C@H](CO)[C@@H](O)[C@H](O)[C@H]3O[C@@H]3OC[C@@H](O)[C@H](O)[C@H]3O)C[C@]12C [Notoginsenoside R1]	-1.263	
C/C=C(/C)C(=O)O[C@@H]1[C@H](OC(=O)CC(C)C)c2c(ccc3ccc(=O)oc23)OC1(C)C [Praeruptorin C]	92.2514	
CCCCCCCCCCCCCC(=O)OCC(COC(=O)CCCCCCCCCCCCC)OC(=O)CCCCCCCCCCCCC [Tritetradecanoin]	-15.9133	
CCCCC/C=C/C(=O)CCc1ccc(O)c(OC)c1 [6-Shogaol]	88.5059	
C[C@@H](CO[C@@H]1O[C@H](CO)[C@@H](O)[C@H](O)[C@H]1O)[C@@H]1CC[C@@]2(CC[C@]3(C)[C@H](CC[C@@H]4[C@@]5(C)CC[C@H](O[C@@H]6O[C@H](CO)[C@@H](O)[C@H](O)[C@H]6O[C@@H]6O[C@H](CO)[C@@H](O)[C@H](O)[C@H]6O)[C@@](C)(CO[C@@H]6O[C@H](CO)[C@@H](O)[C@H](O)[C@H]6O)[C@@H]5CC[C@]43C)[C@H]2O)CO1 [Hosenkoside K]	8.565	
CC(C)(O)[C@@H]1CC[C@](C)([C@H]2[C@@H](O)C[C@@]3(C)[C@@H]4C[C@H](O[C@@H]5O[C@H](CO)[C@@H](O)[C@H](O)[C@H]5O)[C@H]5C(C)(C)[C@@H](O[C@@H]6OC[C@@H](O)[C@H](O)[C@H]6O[C@@H]6O[C@H](CO)[C@@H](O)[C@H](O)[C@H]6O)CC[C@@]56C[C@@]46CC[C@]23C)O1 [Astragaloside VI]	34.1929	
COc1ccc(-c2cc(=O)c3c(OC)c(OC)c(OC)c(OC)c3o2)cc1 [tangeratin]	13.3654	
CC(C)=CCc1c(-c2ccc(O)cc2O)oc2c([C@H]3C=C(C)C[C@@H](c4ccc(O)cc4O)[C@@H]3C(=O)c3ccc(O)cc3O)c(O)cc(O)c2c1=O [kuwanon G]		Inhibition (%) [2]: 76.3133%
COc1cc(C[C@@H](CO[C@@H]2O[C@H](CO)[C@@H](O)[C@H](O)[C@H]2O)[C@H](CO[C@@H]2O[C@H](CO)[C@@H](O)[C@H](O)[C@H]2O)Cc2ccc(O)c(OC)c2)ccc1O [Secoisolariciresinol Diglucoside]	16.7236	
COc1cc2c3c(c1OC)-c1ccccc1C[C@H]3[N+](C)(C)CC2 [N-Methylnuciferine]	3.3459	
Mulberroside C	-17.6148	
C[N+](C)(C)CC(=O)O [Betaine]	17.9596	
C[C@@]1(C(=O)O)CC[C@]2(C)CC[C@]3(C)C4=CC(=O)c5c(cc(O)c(O)c5C=O)[C@]4(C)CC[C@@]3(C)[C@@H]2C1 [Demethylzeylasteral]	-30.5383	
C/C(=C/CC[C@]1(CO)CC[C@]2(C)[C@H](CC[C@@H]3[C@@]4(C)CC[C@H](O[C@@H]5O[C@H](CO)[C@@H](O)[C@H](O)[C@H]5O[C@@H]5OC[C@@H](O)[C@H](O)[C@H]5O)[C@@](C)(CO[C@@H]5O[C@H](CO)[C@@H](O)[C@H](O)[C@H]5O)[C@@H]4CC[C@]32C)[C@H]1O)CO [Hosenkoside G]	-7.077	
Hosenkoside C	19.2389	
COc1cc2ccc(=O)oc2c(O[C@@H]2O[C@H](CO)[C@@H](O)[C@H](O)[C@H]2O)c1O [Fraxin]	53.3023	
Kaempferol-3-O-rutinoside		Inhibition (%): -8.224%
O=C([O-])C1C2CCC(O2)C1C(=O)[O-].[Na+].[Na+] (stereo not shown) [Sodium Demethylcantharidate]	-19.8805	
Glycerite		Inhibition (%) [2]: 39.0701%
O=[N+]([O-])c1ccc(-c2csc(CCl)n2)cc1	-0.6934	
C=CC(C)(C)c1cc(/C=C/C(=O)c2ccc(O)cc2)c(OC)cc1O [Licochalcone A]	0.1303	

Compound	Inhibition (%) [1] [%]	also measured
C=C(C)[C@@H]1CC=C(C=O)CC1 [l-Perillaldehyde]	9.294	
COC(=O)C1=CO[C@@H](O[C@@H]2O[C@H](CO)[C@@H](O)[C@H](O)[C@H]2O)[C@H]2[C@@H]1[C@H](O)C[C@]2(C)OC(C)=O [8-O-Acetyl shanzhiside methyl ester]	-7.475	
C=C(C)[C@@H]1CC[C@]2(C(=O)O)CC[C@]3(C)[C@H](CC[C@@H]4[C@@]5(C)CC[C@H](O)[C@@](C)(CO)[C@@H]5CC[C@]43C)[C@@H]12 [Anemosapoginin]	80.744	
Worenine	-4.039	
COC[C@@]12CC[C@H](OC)[C@]34C([C@H]([C@H](OC)[C@H]13)[C@]1(O)[C@H]3[C@@H](OC(=O)c5ccccc5)[C@](O)(C[C@H]34)[C@@H](OC)[C@@H]1O)N(C)C2 [Benzoylhypacoitine]	27.5083	
CC(=O)OC[C@@]12CC[C@@H](C)[C@](C)(CCC3=CC(=O)OC3)[C@H]1C[C@H](O)C=C2CO [Blinin]	12.5663	
C[N+]1(C)CCC[C@H]1C(=O)[O-] [Stachydrine]	-5.7732	
CC(C)=CC[C@H](OC(=O)C=C(C)C)C1=CC(=O)c2c(O)ccc(O)c2C1=O [β, β-dimethyl-acry-lalkannin]	95.9993	
C[C@@H]1O[C@@H](O[C@H]2[C@H](O[C@H]3CC[C@@]4(C)[C@@H](CC[C@]5(C)[C@@H]4CC=C4[C@@H]6CC(C)(C)CC[C@]6(C(=O)O[C@@H]6O[C@H](CO[C@@H]7O[C@H](CO)[C@@H](O)[C@H](O)[C@H]7O)[C@@H](O)[C@H](O)[C@H]6O)CC[C@]45C)[C@]3(C)CO)OC[C@H](O)[C@@H]2O)[C@H](O)[C@H](O[C@@H]2O[C@H](CO)[C@@H](O[C@@H]3O[C@H](CO)[C@@H](O)[C@H](O)[C@H]3O)[C@H](O)[C@H]2O)[C@H]1O [Macranthoidin B]	4.857	
COc1cc(CO)ccc1O	-8.743	
OCC1OC(OCC2OC(OC3OC=CC4C(O)C5OC5(CO)C34)C(O)C(O)C2O)C(O)C(O)C1O (stereo not shown) [Rhmannioside A]	-0.8784	
COc1c(O)cc2oc3cc(O)c(CC=C(C)C)c(O)c3c(=O)c2c1CC=C(C)C [α-mangostin]		Inhibition (%) [2]: -40.2602%
COc1ccc(CCc2cc(OC)c(OC)c(OC)c2)cc1O [Erianin]	41.476	
COc1ccc([C@H]2OC[C@H]3[C@@H]2CO[C@@H]3c2ccc(OC)c(OC)c2)cc1OC [Pinoresinol dimethyl ether]	3.198	
C=C1C(=O)O[C@@H]2/C=C(\C)CC/C=C(\C)CC[C@@H]12 [Costundide]	91.7561	
O=c1c2ccccc2ncn1CC1(O)C[C@@H]2NCCC[C@@H]2O1 (stereo partly shown) [isofebrifugin]	51.0321	
liquiritin apioside		Inhibition (%): 8.77%
CCOC(C)OCCc1ccccc1 (stereo not shown) [2-(1-Ethoxyethoxy)ethyl)benzene]	-9.717	
O=C(O)CCC(=O)O [Butanediacid]	0.1245	
CC=C1[C@H](O[C@@H]2O[C@H](CO)[C@@H](O)[C@H](O)[C@H]2O)OC=C(C(=O)OC)[C@H]1CC(=O)OC[C@H]1O[C@@H](OCCc2ccc(O)cc2)[C@H](O)[C@@H](O)[C@@H]1O (stereo in doubt) [Specnuezhenide]	3.533	
O=c1ccc2ccc(O)cc2o1 [umbelliferone (7-Hydroxycoumarin)]		Inhibition (%) [2]: 9.245%
O=C(O[C@H]1[C@H](Oc2c(-c3ccc(O)c(O)c3)oc3cc(O)cc(O)c3c2=O)O[C@H](CO)[C@H](O)[C@@H]1O)c1cc(O)c(O)c(O)c1 [2'-O-Galloylhyperin]	18.9	
CC(C)=CCC[C@@](C)(O)[C@H]1CC[C@]2(C)[C@@H]1[C@H](O)C[C@@H]1[C@@]3(C)CC[C@H](O[C@@H]4O[C@H](CO)[C@@H](O)[C@H](O)[C@H]4O)C(C)(C)[C@@H]3CC[C@]12C [20(R)-Ginsenoside Rh2]	40.7268	
CC(=O)CCc1ccc(O)cc1 [4-(4-Hydroxyphenyl)-2-butanone]	24.9997	
O=C1CCCC2C3CCC[N+]4([O-])CCCC(CN12)C34 (stereo not shown) [oxysophoridine]	30.3663	
CCC/C=C1\OC(=O)C2=C1CC[C@H]1[C@H]3C=C4C(=O)O/C(=C\CCC)[C@@]4(CC3)[C@@H]21 [Levistilide A]	58.6202	
C/C=C(/C)C(=O)O[C@H]1[C@@H](OC(C)=O)c2c(ccc3ccc(=O)oc23)OC1(C)C [Praeruptorin A]	66.0418	

Source: paper PMC7038234, “Screening of Natural Extracts for Inhibitors against Japanese Encephalitis Virus Infection” (Antimicrobial Agents and Chemotherapy, 2020)
